# Measured values published in PMC9091064, “Key dimer interface residues impact the catalytic activity of 3CLpro, the main protease of SARS-CoV-2” (2022).
# Target: SARS-CoV-2 3CLpro E166A (SARS-CoV-2)
# Assay: SEC
substance,measurement,value
SARS-CoV-2 3CLpro E166A (enzyme),stoichiometry N,2
